Assay: general procedure: Fmoc solid-phase peptide synthesis; NovaPEG Rink amide resin; HBTU/HOBt/DIPEA
Settings: whole synthesis, LC-HRMS

Substance | final LC-MS purity [%]
H-GIGKFLHSAKKFGKAFV-NH2 | 99.8
H-GIGKFLHSAKKFGKAFVGEIMNS-NH2 | 98.0
H-GIGKFLHSUKKFGKUFV-NH2 | >99.9
H-GIGKFLHSZKKFGKZFV-NH2 | 96.9
H-GIKKFLKSZKKFVKZFK-NH2 | 96.9
H-KKKKKKKKKGGGLLALLALLA-NH2 | 98.0
H-KKKLAKLKLGAKLKLKGKLGA-NH2 | >99.9
H-KLLKKAGKLLKKAGKLLKKAG-NH2 | >99.9
H-TVIEVASKMCSKMRLLKGLCKSITKRFLRR-NH2 | 96.5

Reference: article PMC8786148 (PLoS ONE, 2022)
